Assay results: ChEMBL document CHEMBL4627412

Chains of the proteins cited; added tags and fusions are not shown.
UniProt Q9YQ12, entry or part of it I84V: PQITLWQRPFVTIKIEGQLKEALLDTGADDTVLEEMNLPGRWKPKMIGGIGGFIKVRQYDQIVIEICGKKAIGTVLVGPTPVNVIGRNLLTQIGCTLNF
UniProt Q9YQ12, entry or part of it A71V/I50V: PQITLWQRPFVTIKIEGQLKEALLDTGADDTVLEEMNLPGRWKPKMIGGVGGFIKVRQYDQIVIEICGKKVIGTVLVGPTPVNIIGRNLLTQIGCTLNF

How the values were obtained:
Protease [1] = biological target: Protease (Human immunodeficiency virus 1, UniProt Q9YQ12, I84V); assay: Inhibition of HIV1 NL4-3 protease I84V mutant expressed in Escherichia coli TAP-106 cells using EDANS/DABCYL-labelled 10-amino acid containing protease cleavage site as substrate preincubated for 1 hr followed by substrate addition and measured for 60 mins by FRET assay
Protease [2] = biological target: Protease (Human immunodeficiency virus 1, UniProt Q9YQ12, A71V/I50V); assay: Inhibition of HIV1 NL4-3 protease I50V/A71V mutant expressed in Escherichia coli TAP-106 cells using EDANS/DABCYL-labelled 10-amino acid containing protease cleavage site as substrate preincubated for 1 hr followed by substrate addition and measured for 60 mins by FRET assay

`Cc1cccc(C)c1OCC(=O)N[C@@H](Cc1ccccc1)[C@@H](O)C[C@H](Cc1ccccc1)NC(=O)[C@H](C(C)C)N1CCCNC1=O` [LOPINAVIR] was tested, and the Ki (Protease [1]) was 51 pM and the Ki (Protease [2]) was 61 pM.
